Results of unrelated studies side by side (data: NIAID ChemDB).

Shared fields: host cell toxicity; read-out: CC50

Rows are shuffled and stem from different studies.

| smiles | cells | method | setting | result |
|---|---|---|---|---|
| CCCC1CCC(=C2C(=O)CCC2=O)O1 | HeLa | - | - | 200 µg/mL |
| CC(C)=CC[C@H]1C[C@]2(C[C@H]3CCC(C)(C)C=C3C)C(=O)C3=C(OC(C)(C)CC3)[C@@](C(=O)c3ccccc3)(C2=O)C1(C)C | 1A2 | XTT / absorbance | - | 23.45 µM |
| CC1C(=O)N(O)c2ncc(Br)cc2C1O | PHH | MTS | 3 d | >100 µM |
| Nc1nc(OCCOCP(=O)(O)O)cc(=O)n1CCOCP(=O)(O)O | CCRF-CEM | - | - | <10 µM |
| COc1ccc(S)cc1C(=O)NC1N=C(c2ccccc2)c2ccccc2NC1=O | HEP-2 | - | - | 3.8 µM |
| CN1C(=O)C23CC4(C56CC78SSC(CO)(C(=O)N7C5Nc5ccccc56)N(C)C8=O)c5ccccc5NC4N2C(=O)C1(CO)SS3 | HeLa | - | - | 200 µg/mL |
| O=c1c2cc(O)c(O)cc2oc2cc(O)cc(O)c12 | HT-29 | sulforhodamine / absorbance | - | >50 µM |
| O=c1[nH]c(=O)n([C@H]2C[C@H](O)[C@@H](CO)O2)cc1/C=C/Br | HSB-2 | MTT | - | 3.5 µM |
| O=C1C[C@@H](c2ccc(O)cc2)Oc2cc(O)c(-c3c(O)cc4c(c3O)C(=O)C[C@@H](c3ccc(O)cc3)O4)c(O)c21 | MA-104 | visual reading | - | ~22 µg/mL |
| CC(C)OC(=S)Nc1ccc(Cl)c(COC(C)(C)C)c1 | VERO | - | - | >10 µg/mL |
| O=c1cc(-c2ccc(O)c(-c3c(O)cc(O)c4c(=O)cc(-c5ccc(O)cc5)oc34)c2)oc2cc(O)cc(O)c12 | MA-104 | neutral red | - | ~56 µg/mL |
| CCCCCCCCCCC[C@@H]1CCC[C@H](C)N1 | VERO | - | - | 5.62 µg/mL |
| O=C(NC1N=C(c2ccccc2)c2ccccc2NC1=O)c1cccc(C(F)(F)F)c1 | VERO | - | - | 2.5 µM |
| CC(C)=CC[C@H]1C[C@@]2(C[C@H]3CCC(C)(C)C=C3C)C(=O)[C@](C(=O)c3ccccc3)(C(=O)C3=C2OC(C)(C)CC3)C1(C)C | 1A2 | XTT / absorbance | - | >219 µM |
| C[C@@H](COc1cc(N)nc(N)n1)OCP(=O)(O)O | CCRF-CEM | - | - | <10 µM |
| O=C(O)P(=O)(O)O | CBMC | MTT | - | 890 µM |
| COc1cc2ccccc2cc1C(=O)NC1N=C(c2ccccc2)c2ccccc2NC1=O | HEP-2 | - | - | 6.7 µM |
| Nc1nc(OCCOCP(=O)(O)O)cc(=O)[nH]1 | L1210 | - | - | 10 µM |
| Nc1ncnc2c1ncn2CCOCP(=O)(O)O | CBMC | MTT | - | 44 µM |
| CCN(CC)CCCN(C)Cc1c(-c2ccccc2)oc(-c2ccccc2)c1Cl.Cl.Cl | VERO | - | - | 2 µg/mL |
| CC(C)=CC[C@H]1C[C@@]2(C[C@H]3CCC(C)(C)C=C3C)C(=O)[C@](C(=O)c3ccccc3)(C(=O)C3=C2OC(C)(C)C=C3)C1(C)C | MCF-7 | sulforhodamine / absorbance | - | >50 µM |
| O=c1cc(-c2ccc(Oc3c(O)cc4oc(-c5ccc(O)cc5)cc(=O)c4c3O)cc2)oc2cc(O)cc(O)c12 | MDCK | visual reading | - | 1.3 µg/mL |
| COC(=O)c1ccc(C(=O)NC2N=C(c3ccccc3)c3ccccc3NC2=O)cc1 | HEP-2 | - | - | 6.5 µM |
| O=C1c2c(O)cc(O)cc2O[C@@H](c2ccc(O)cc2)[C@@H]1c1c(O)cc(O)c2c(=O)cc(-c3ccc(O)c(O)c3)oc12 | ASK (Atlantic salmon kidney) | sulforhodamine / absorbance | - | >50 µM |
| C=C[C@]1(C)C[C@@H](OC(=O)CO)[C@]2(C)C(C)CC[C@]3(CCC(=O)C32)[C@@H](C)[C@@H]1O | HeLa | - | - | >530 µM |
| O=c1[nH]c(=O)n([C@H]2C[C@H](O)[C@@H](CO)O2)cc1I | CBMC | MTT | - | 153 µM |
| Nc1ncnc2c1ncn2[C@@H]1O[C@H](CC(N)CC[C@H](N)C(=O)O)[C@@H](O)[C@H]1O | HeLa | - | - | 100 µg/mL |
| CC[N+](CC)=c1cc2oc3cc(N(C)C)ccc3nc-2cc1C.[Cl-] | VERO | - | - | 2.49 µg/mL |
| CN(C)c1cc(OCCOCP(=O)(O)O)nc(N)n1 | L1210 | - | - | <10 µM |
| O=c1[nH]c(=O)n([C@@H]2O[C@H](CO)[C@@H](O)[C@@H]2O)cc1/C=C/Br | CBMC | MTT | - | 148 µM |
| Cn1c(=O)c2c(ncn2C)n(C)c1=O | HeLa | - | - | 50–100 µg/mL |
| Nc1cc(=O)n(CCOCP(=O)(O)O)c(N)n1 | L1210 | - | - | <10 µM |

a–b is a range or a potency band. Blank or dashed fields: not listed here. CCn is the concentration with n% toxicity to the cells.